Reference: US11203633B2, “Polynucleotides encoding antibodies or antigen binding fragments thereof that bind pseudomonas perv” (priority 2011, dated 2021)

System: PcrV
Assay: PcrV epitope diversity (bead based flow cytometry, competition ELISA, western blotting)
Type: binding, Pseudomonas aeruginosa
Conditions: FIG. 12A

Molecule	epitope class (anti-PcrV)
V2L2: anti-PcrV monoclonal antibody; VH SEQ ID NO:216, VL SEQ ID NO:217 (antibody, V domains shown, V2L2 VH; V2L2 VL) VH: EMQLLESGGGLVQPGGSLRLSCAASGFTFSSYAMNWVRQAPGEGLEWVSAITISGITAYYTDSVKGRFTISRDNSKNTLYLQMNSLRAGDTAVYYCAKEEFLPGTHYYYGMDVWGQGTTVTVSS VL: AIQMTQSPSSLSASVGDRVTITCRASQGIRNDLGWYQQKPGKAPKLVIYSASTLQSGVPSRFSGSGSGTDFTLSISSLQPDDFATYYCLQDYNYPWTFGQGTKVEIK	class 4
29D2: anti-PcrV mAb, epitope class 3 (antibody, V domains shown, 29D2 VH; 29D2 VL) VH: EVQLLESGGGLVQPGGSLRLSCAASGFTFSSYAMSWVRQAPGKGLEWVSAISGSGYSTYYADSVKGRFTMSRDNSKNTLYLQMNSLRAEDTAVYYCAAEYSISSNYYYGMDVWGQGTTVTVSS VL: DIQLTQSPSFLSASVGDRVTITCWASQGISSYLAWYQQKPGKAPKLLIYAASTLQSGVPSRFSGSGSGTEFTLTISSLQPEDFATYYCQQLNSSPLTFGGGTKVEIK	class 3
